# Laboratory results taken from the supplement of paper PMC12637763.
# Where a chain is given by its changes, count along the chain named. The list shows a part of the results. Env chains of viruses from a treatment-interruption trial, translated from the printed DNA. IC50 / IC80 of two broadly neutralizing antibodies; lower = more sensitive virus; >50 µg/ml means not reached and <0.001 µg/ml is below the lowest dose. No active / inactive call.
# B1: HIV-1 Env, rebound clone, placebo arm (protein)
# chain: MRVKGIMRNYQHLWRWGIMLLGILMICNATEKLWVTVYYGVPVWKEATTTLFCASDAKAYDTEAHNVWATHACVPTDPDPQEVVLENVTENFNAWKNDMVEQMHEDIISLWDQSLKPCVKLTPLCVTLECTDNVNCTGTNCTGVKDTNDTNNANLIMEKGEMKNCSFNITTNIRDKVDRQYALFYKLDIVQIEDNNTNTYRLISCNTSVITQACPKVSFEPIPIHYCAPAGFAILKCKDKGFSGKGTCKNVSTVQCTHGIRPVVSTQLLLNGSLAEKEVVIRSNNLTNNAETIIVQLSKTIQINCTRPNNNTRKGIHIGPGRAFYATGEIIGDIRQAHCNISGKDWNEALKWIAGKLKEKFNKTIVFRPPIRGGDPEIVMHTFNCGGEFFYCNTTKLFNSTHNDTHDTAINNTTITLPCKIKQIINMWQEVGKAMYAPPIRGNISCSSNITGLLLIRDGGNTSTNETFRPGGGNMKDNWRSELYKYKVVKIEPLGVAPTKAKRRVVQREKRAMGLGALFLGFLGAAGSTMGAASVTLTVQARQLLSGIVQQQNNLLRAIEAQQHMLQLTVWGIKQLQARVLAVERYLKDQQLLGIWGCSGKLICTTSVPWNTSWSNKSYHQIWENMTWMQWEKEIDNYTGIIYTLIEESQTQQEMNEKELLELDKWAGLWNWFSITNWLWYIRIFIMIVGGLIGLRIVFAVLSIVKRVRQGYSPLSFQTLFPTQRGPDRPGEIEEEGGEQDRGRSIRLVDGFLALFWDDLRSLCLFSYHRLRDLLLIVARIVELLGRRGWEILKYWWSLLQYWSQELKNSAISLLNTTAIIVGEGTDRVIETAQRVVRAFLHIPRRIRQGFERALQ
# B2: HIV-1 Env, rebound clone, placebo arm (protein)
# chain: B1 chain with I23M, S448L, G691S
# B3: HIV-1 Env, rebound clone, antibody arm (protein)
# chain: MKVKVTMRNYQNLWRGGTLLLGMLMICSGAEQLWVTVYYGVPVWKEANTTLFCASDAKAYDTEVHNVWATHACVPTDPSPQEVVLENVTEDFNIWKNNMVEQMHEDIISLWDQSLKPCVKLTPLCVTLNCSNVNNQTGTNNNSSHGKDVEGEMKNCSFNVTTNIRDKIKREYALLYKLDIVPIDNDNTSYTLTSCNTSVITQACPKVSFEPIPIHYCAPAGFAILKCNNKTFNGKGPCTNVSTVQCTHGIRPVVSTQLLLNGSLAEDVVLRSENFTNNAKTIIVQLKEPVIINCTRPNNNTRKSIPMGPGRAWYTTGEIIGDIRQAHCNINKAQWNKTLQQVVTKLREQFGNKTIVFNQPTGGDPEIVMHSFNCGGEFFYCNTSKLFNSTWNNSTQGFNSTGESNTTITIQCTIKQIINMWQQVGKAMYAPPIAGQIKCSSNITGLLLTRDGGGNKTENETFRPAGGDMRDNWRSELYKYKVVQIKPLGIAPTKAKRRVVQREKRAVGIGALFLGFLGAAGSTMGAAAVTLTVQARQLLSGIVQQQNNLLRAIEAQQHMLQLTVWGIKQLQARVLAVERYLRDQQLLGIWGCSGKLICTTTVPWNNSWSNKSLDDIWGNMTWMEWEKEIDNYTYTIYKLIEESQNQQEKNEQELLELDKWANLWNWFDITNWLWYIKIFIIIVGGLIGLRIVFAVLSIVNRVRQGYSPLSLQTLLPAPRGPDRPGEIEEEGGERDKDTSVRLVNGFLAIIWDDLRSLCLFSYRHLRDLLLIVTRIVGLLGHRGWEVLRYWWNLLQYWIQELKNSAVSLLNVTAIAVAEGTDRVIEIAQRACRAVLHIPRRIRQGLERGLL
# B4: HIV-1 Env, rebound clone, antibody arm (protein)
# chain: B3 chain with D821E
# B5: HIV-1 Env, rebound clone, antibody arm (protein)
# chain: B3 chain with D468N
# B6: HIV-1 Env, rebound clone, antibody arm (protein)
# chain: B3 chain with N277H
# Tests used:
# [1] = molecular target: antibody 10-1074; test: neutralization IC50; higher = virus less sensitive to the antibody
# Procedure: (§1)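 Pseudovirus bearing the Env chain mixed with antibody, from 50 µg/ml in fivefold dilutions, on TZM-bl reporter cells, in duplicate.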
# [2] = molecular target: antibody 3BNC117; test: as above
# Procedure: as §1
# [3] = molecular target: antibody 10-1074; test: neutralization IC80; higher = virus less sensitive to the antibody
# Procedure: as §1
# [4] = molecular target: antibody 3BNC117; test: as above
# Procedure: as §1
Binder,neutralization IC50 [1] [µg/mL],neutralization IC50 [2] [µg/mL],neutralization IC80 [3] [µg/mL],neutralization IC80 [4] [µg/mL]
B1,0.13,0.088,0.448,0.318
B2,0.093,0.091,0.307,0.416
B3,> 50,0.035,> 50,0.111
B4,> 50,0.033,> 50,0.115
B5,> 50,0.069,> 50,0.233
B6,> 50,0.045,> 50,0.186
